A mixed list of measured activities; the numbers were collected in NIAID ChemDB.

Common to all: growth or infection tests; species: HIV-1; read by: p24; endpoint: EC50

Lines come from different laboratories, so protocols vary. Two numbers with a dash give a range or band. ECn: concentration that inhibits the pathogen or its effect by n%. Blank or dashed fields: not listed here.

SMILES	cell line	changes	strain	value
Nc1ccn([C@@H]2CO[C@H](CO)S2)c(=O)n1	PBMC	-	HXB2D	1 µM
CCO/N=C(\c1ccc(Br)cc1)C1CCN(C2(C)CCN(C(=O)c3c(C)cc[n+]([O-])c3C)CC2)CC1	PBMC	-	ASJM 108 R5 CLADE B	0.0011 µM
O=c1[nH]cnc2c1ncn2[C@H]1CC[C@@H](CO)O1	PBMC	-	7253 CLADE A CLADE A	1.01 µM
C[C@@H]1C[C@@H]([C@H](O)CC2CC(=O)NC(=O)C2)C(=O)[C@@H](C)C1	H9	-	IIIB	0.1 µg/mL
CC(C)Nc1cccnc1N1CCN(C(=O)c2cc3cc(NS(C)(=O)=O)ccc3[nH]2)CC1	PBMC	-	477 clinical isolates delavirdine-resistant	<6.7 µM
C=CCN(C(=O)NCc1ccc(F)c(F)c1)C1CCN(C[C@H]2CN(C(=O)C3CCCC3)C[C@]2(O)c2ccccc2)CC1	PBMC	-	-	0.006–0.05 µM
C[C@@H](NC(=S)Nc1ccc(Cl)cn1)c1cccc2ccccc12	PBMC	RT-Y181C	A17	0.043 µM
Cc1cn([C@H]2C[C@H](N=[N+]=[N-])[C@@H](CO)O2)c(=O)[nH]c1=O	PBMC	-	Subtype B isolate	0.0015 µM
CCN(c1ncccc1NC(C)(C)C)C1CCN(C(=O)c2cc3cc(NS(C)(=O)=O)ccc3[nH]2)CC1	PBMC	-	Isolate 458	<0.03 µM
O=C(C1CCCC1)N1C[C@H](CN2CCC(N3CC=CN(Cc4ccc(C(F)(F)F)cc4)C3=O)CC2)[C@@](O)(c2ccccc2)C1	PBMC	-	-	>0.1 µM
Nc1ccn([C@H]2CC[C@@H](CO)O2)c(=O)n1	MT-2	RT-L214F	L214F(RT-L214F)	0.48 µM
CCc1cc(NCc2nc3c(Cl)ccc(Cl)c3o2)c(=O)[nH]c1C	MT-4	-	RUTZ	<0.1 µM
Cc1cn([C@H]2C[C@H](N=[N+]=[N-])[C@@H](CO)O2)c(=O)[nH]c1=O	MT-2	-	HXB2D	0.013 µM
CC(C)CN(C[C@@H](O)[C@H](Cc1ccccc1)NC(=O)[C@H](CC(N)=O)NC(=O)c1ccc2ccccc2n1)C(=O)NC(C)(C)C	MT-4	PR-L10R M46I	NL4-3	<0.2 µM
C=CCN(C(=O)OCc1ccc2nonc2c1)C1CCN(C[C@H]2CN(C(=O)C3CCCC3)C[C@]2(O)c2ccccc2)CC1	PBMC	-	-	<0.005 µM
Nc1ncnc2c1ncn2[C@@H]1O[C@H](CO)C[C@@H]1F	MT-2	RT-F77L F116Y Q151M	RT F77L/F116Y/Q151M	18 µM
O=c1[nH]cnc2c1ncn2[C@H]1CC[C@@H](CO)O1	C8166	RT-M41L L74V V106A T215Y	HXB2	6.5 µM
COc1cc2c(cc1OC)[C@@H](Nc1ccc([N+](=O)[O-])cc1)[C@H]1COC(=O)[C@@H]1[C@@H]2c1cc(OC)c(OC)c(OC)c1	H9	-	IIIB	2.45 µg/mL
C=CCN(C(=O)Cc1ccc(S(N)(=O)=O)cc1)C1CCN(C[C@H]2CN(C(=O)C3CCCC3)C[C@]2(O)c2ccccc2)CC1	PBMC	-	-	<0.005 µM
O=c1[nH]cnc2c1ncn2[C@H]1CC[C@@H](CO)O1	MT-2	-	HXB2D	1.4 µM
C[C@@H](NC(=S)Nc1ccc(Br)cn1)c1cccc2ccccc12	PBMC	RT-K103N Y181C	A17V(RT-K103N Y181C)	0.287 µM
COc1ccc2c(c1)N(C(=O)OC(C)C)[C@@H](CSC)C(=S)N2	H9	-	MN	0.007 µg/mL
Cc1ccnc2c1NC(=O)c1cccnc1N2C1CC1	C8166	RT-V106I Y188C	RF	>30 µM
Cc1ccnc2c1NC(=O)c1cccnc1N2C1CC1	PBMC	RT-L74V V106A T215Y	RT multidrug-resistant (L74V V106A T215Y)	0.155 µM
CCO/N=C(\c1ccc(Br)cc1)C1CCN(C2(C)CCN(C(=O)c3c(C)cc[n+]([O-])c3C)CC2)CC1	PBMC	-	R5-01 R5 clinical isolate	0.0147 µM
Nc1ccn([C@H]2CO[C@@H](CO)S2)c(=O)n1	PBMC	RT-K65R	HXB2D (RT-K65R)	3.5 µM
O=c1oc(-c2ccccc2)cc(O)c1C(CC1CC1)SC1CCCCC1	H9	-	IIIB	25 µM
Cc1cn([C@H]2C[C@H](N=[N+]=[N-])[C@@H](CO)O2)c(=O)[nH]c1=O	PBMC	RT-M41L D67N K70R T215F K219Q	G780-1 Clinical isolate ZDV-resistant	>3.2 µM
CC(C)(C)NC(=O)[C@@H]1CN(Cc2cnc3ccccc3c2)CCN1C[C@@H](O)C[C@@H](Cc1ccccc1)C(=O)N[C@H]1c2ccccc2C[C@H]1O	MT-4	-	IIIB	<0.025 µM
C=CCN(C(=O)NCc1ccc(S(N)(=O)=O)cc1)C1CC2CCC(C1)N2C[C@H]1CN(C(=O)C2CC2)C[C@]1(O)c1cccc(F)c1	PBMC	-	-	0.051–0.099 µM
Cc1cn([C@H]2C[C@H](N=[N+]=[N-])[C@@H](CO)O2)c(=O)[nH]c1=O	PBMC	MDR	JSL	0.3 µM
CCCC1NCCc2cc(O)c(O)cc21	H9	-	IIIB	2.88 µg/mL
CCC[C@@]1(CCc2ccccc2)CC(O)=C([C@H](CC)c2cccc(NS(=O)(=O)c3ccc(C(F)(F)F)cn3)c2)C(=O)O1	PBMC	-	Isolate N. Amer 5	<0.17 µM
CCCCN1C(=O)C(CC2CCCCC2)NC(=O)C12CCN(Cc1ccc3c(c1)OCCO3)CC2	PBMC	-	BaL	0.04 µM
C=CCN(C(=O)NCc1ccc(C(F)(F)F)cc1)C1C[C@H]2CC[C@@H](C1)N2C[C@H]1CN(C(=O)C2CCCC2)C[C@]1(O)c1cccc(F)c1	PBMC	-	-	<0.005 µM
Cc1ccc(NC(=S)N[C@H](C)c2cccc3ccccc23)nc1	PBMC	-	IIIB	0.0023 µM
Cc1ccnc2c1NC(=O)c1cccnc1N2C1CC1	PBMC	-	Subtype B isolate	0.03 µM
O=C1N(Cc2ccc(CO)cc2)[C@H](Cc2ccccc2)[C@H](O)[C@@H](O)[C@@H](Cc2ccccc2)N1Cc1ccc(CO)cc1	PBMC	-	9156 clinical isolate	0.09 µM
COc1cc(Cc2c3cc(OC)c(OC)cc3cc(C)[n+]2C)c(C(C)=O)cc1OC	H9	-	IIIB	>20.6 µg/mL
CCc1cc(NCc2nc3c(C)ccc(C)c3o2)c(=O)[nH]c1C	H9	-	IIIB	<0.2 µM
COc1cc([C@@H]2c3cc(O)c(O)cc3[C@H](O)[C@H]3COC(=O)[C@H]23)cc(OC)c1OC	H9	-	IIIB	4.3 µg/mL
Cc1c(O)cccc1C(=O)N[C@@H](CSc1ccccc1)[C@H](O)CN1C[C@H]2CCCC[C@H]2C[C@H]1C(=O)NC(C)(C)C	PBMC	MDR	MM	>1 µM
CCc1cc(NCc2nc3c(Cl)ccc(Cl)c3o2)c(=O)[nH]c1C	PBMC	RT-M41L D67N T215Y	Clinical isolate (RT M41L D67N T215Y)	<0.8 µM
Cc1csc(NC(=S)N[C@H](C)c2cccc3ccccc23)n1	PBMC	-	IIIB	0.001 µM
CC(C)(C)NC(=O)[C@@H]1C[C@@H]2CCCC[C@@H]2CN1C[C@@H](O)[C@H](Cc1ccccc1)NC(=O)[C@H](CC(N)=O)NC(=O)c1ccc2ccccc2n1	PBMC	MDR	TM	0.07 µM
CC(C)(C)NC(=O)[C@@H]1CN(Cc2cc3cccnc3o2)CCN1C[C@@H](O)C[C@@H](Cc1ccccc1)C(=O)N[C@H]1c2ccccc2C[C@H]1O	MT-4	-	IIIB	<0.05 µM
Cc1cn([C@H]2C[C@H](N=[N+]=[N-])[C@@H](CO)O2)c(=O)[nH]c1=O	H9	-	IIIB	0.0239 µg/mL
CC(C)(C)NC(=O)[C@@H]1C[C@@H]2CCCC[C@@H]2CN1C[C@@H](O)[C@H](Cc1ccccc1)NC(=O)[C@H](CC(N)=O)NC(=O)c1ccc2ccccc2n1	MT-4	PR-L10R	NL4-3	<0.05 µM
Nc1nc(=O)n([C@@H]2CO[C@H](CO)S2)cc1F	PBMC	RT-K65R	HXB2D (RT-K65R)	11.5 µM
CCOc1ccc(Cc2c3cc(OCC)c(OCC)cc3cc[n+]2C)cc1OCC	H9	-	IIIB	>17.1 µg/mL
Cc1cc2oc(CN3CCN(C[C@@H](O)C[C@@H](Cc4ccccc4)C(=O)N[C@H]4c5ccccc5C[C@H]4O)[C@H](C(=O)NC(C)(C)C)C3)cc2cn1	MT-4	-	IIIB	<0.012 µM
CC(C)Nc1cccnc1N1CCN(C(=O)c2cc3cc(NS(C)(=O)=O)ccc3[nH]2)CC1	PBMC	RT-M41L K103N T215Y	MDR (RT M41L K103N T215Y) Clinical isolate	14.8 µM
C=CCN(C(=O)Cc1ccc(S(=O)(=O)NC)cc1)C1CCN(C[C@H]2CN(C(=O)C3CCCC3)C[C@]2(O)c2ccccc2)CC1	PBMC	-	-	<0.005 µM
CC(C)c1ccccc1SC1=C(O)CC(CCc2ccccc2)(c2ccccc2)OC1=O	H9	-	IIIB	69 µM
CSc1ncccc1CN1CCN(C[C@@H](O)C[C@@H](Cc2ccccc2)C(=O)N[C@H]2c3ccccc3C[C@H]2O)[C@H](C(=O)NC(C)(C)C)C1	MT-4	-	IIIB	<0.0156 µM
O=c1c2ccccc2n2nnc3ccc(NCCCN4CCN(CCCNc5ccc6nnn7c8ccccc8c(=O)c5c67)CC4)c1c32	PBL	-	CLADE D	0.072 µM
c1cc(CN2CCCNCCNCCCNCC2)ccc1CN1CCCNCCNCCCNCC1	PBMC	-	MOKW	>1 µM
CCOC(=O)c1cnc2oc(CN3CCN(C[C@@H](O)C[C@@H](Cc4ccccc4)C(=O)N[C@H]4c5ccccc5C[C@H]4O)[C@H](C(=O)NC(C)(C)C)C3)cc2c1	MT-4	-	IIIB	<0.025 µM
CC(C)[C@H](NC(=O)c1ccc2ccccc2n1)C(=O)N[C@@H](Cc1ccccc1)[C@H](O)CN1CC[C@@H](OCc2ccncc2)C[C@H]1C(=O)NC(C)(C)C	PBMC	-	ddI-resistant	0.005 µM
Cc1cn([C@H]2C[C@H](N=[N+]=[N-])[C@@H](CO)O2)c(=O)[nH]c1=O	MT-4	-	IIIB/LAI	0.026 µM
COC(=O)[C@H](C)NP(=O)(OC[C@@H]1C=C[C@H](n2cc(C)c(=O)[nH]c2=O)O1)Oc1ccc(Br)cc1	PBMC	RT-Y188L	Y270-7 NNRTI-resistant clinical isolate	0.009 µM
CC[C@]1(c2ccccc2)Oc2cccnc2-n2cccc2C1=O	C8166	-	-	0.56 µM
COc1cc2c(cc1OC)[C@@H](Nc1ccc(F)cc1)[C@H]1COC(=O)[C@@H]1[C@@H]2c1cc(OC)c(O)c(OC)c1	H9	-	IIIB	<0.001 µg/mL
COc1ccc(Cc2cc3cc(OC)c(OC)cc3c[nH+]2)cc1OC	H9	-	IIIB	>10.1 µg/mL
Cc1cn([C@H]2C[C@H](N=[N+]=[N-])[C@@H](CO)O2)c(=O)[nH]c1=O	H9	RT-K101I K103N Y181C G190A	B8 (RT K101I K103N Y181C G190A)	0.03 µg/mL
O=c1[nH]cnc2c1ncn2[C@H]1CC[C@@H](CO)O1	PBMC	RT-D67G	HxB2D(RT-D67G)	5 µM
COc1cc2c(cc1OC)[C@@H](Nc1ccc(F)cc1)[C@H]1COC(=O)[C@@H]1[C@@H]2c1cc(OC)c(OC)c(OC)c1	H9	-	IIIB	0.151 µg/mL
CC(C)(C)NC(=O)[C@@H]1CN(Cc2nc3ccccc3[nH]2)CCN1C[C@@H](O)C[C@@H](Cc1ccccc1)C(=O)N[C@H]1c2ccccc2C[C@H]1O	MT-4	-	IIIB	<0.2 µM

The last 3 rows once more:

SMILES,cell line,changes,strain,value
O=c1[nH]cnc2c1ncn2[C@H]1CC[C@@H](CO)O1,PBMC,RT-D67G,HxB2D(RT-D67G),5 µM
COc1cc2c(cc1OC)[C@@H](Nc1ccc(F)cc1)[C@H]1COC(=O)[C@@H]1[C@@H]2c1cc(OC)c(OC)c(OC)c1,H9,-,IIIB,0.151 µg/mL
CC(C)(C)NC(=O)[C@@H]1CN(Cc2nc3ccccc3[nH]2)CCN1C[C@@H](O)C[C@@H](Cc1ccccc1)C(=O)N[C@H]1c2ccccc2C[C@H]1O,MT-4,-,IIIB,<0.2 µM